The structures appear in SMILES notation.

The target of this assay is HIV-1 RT (Human immunodeficiency virus type 1 group M subtype B, UniProt P03366). In words: HIV-1 RT inhibition assay. Type of assay: biochemical.

For orientation: IC50 means the concentration that inhibits the measured activity by half. Read a high IC50 as a need for much substance. For `Cc1cc(C#N)cc(C)c1Oc1nc(Nc2ccc(C#N)cc2)nc(N)c1Br` [ETR, etravirine, reference compound], 0.232 ± 0.036 µM corresponded to half-maximal inhibition (IC50).

Source of the values: publication PMC10935503 (Acta Pharmaceutica Sinica. B, 2023).
